From paper PMC4271523, “Differential Effects of a Mutation on the Normal and Promiscuous Activities of Orthologs: Implications for Natural and Directed Evolution” (Molecular Biology and Evolution, 2014)

Columns and labels:
N[C@@H](CCC=O)C(=O)O = experiment: purified protein; settings: 1 mM NADP+, 100 mM potassium phosphate pH 7.6, room temperature, reverse (dehydrogenase) direction, apparent KM corrected to free GSA aldehyde/hydrate
[1] = tested on: CC(=O)N[C@@H](CCC=O)C(=O)O; experiment: purified protein; settings: 1 mM NADP+, 100 mM potassium phosphate pH 7.6, room temperature, reverse (dehydrogenase) direction, promiscuous substrate, apparent KM, NAGSA in equilibrium with its hydrate

Substance | Km (N[C@@H](CCC=O)C(=O)O) | kcat (N[C@@H](CCC=O)C(=O)O) | kcat/Km (N[C@@H](CCC=O)C(=O)O) | Km [1] | kcat [1] | kcat/Km [1]
Yersinia enterocolitica ProA (Yersinia enterocolitica subsp. enterocolitica 8081; S333G) | 56 ± 2 µM | 7.6 s⁻¹ | 134000 M⁻¹ s⁻¹ | 1200 ± 100 µM | 0.00012 s⁻¹ | 0.095 M⁻¹ s⁻¹
Yersinia enterocolitica ProA (Yersinia enterocolitica subsp. enterocolitica 8081; E385A/S333G) |  |  |  | 52 ± 8 µM | 0.0037 s⁻¹ | 73 M⁻¹ s⁻¹
